The source of these data is the supplement of paper PMC9931576.

B1: BD56-1786 (protein)
chain 1: EVQLVESGGGLVKPGGSLRLSCAGSGFTFSNYIMNWVRQAPGKGLEWVSSISSSSTEIYYAVSVKGRFTISRDNAKRSVYLQMNSLRVEDTAVYYCARDPGAFDWASGSLDYYGMSVWGQGTTVTVSS
chain 2: QSVLTQPPSVSGAPGQRVTVSCTGSSSNIGADYAVHWYRQLPGTAPKLLIYGNTNRPSGVPDRFSGSKSGTSASLAITGLQAEDEADYYCQSFDKSLSGVVFGGGTKLTVL
B2: BD56-1793 (protein)
chain 1: EVQLVESGGGLVQPGGSLRLSCVASTFVFSSYDMHWVRQAAGKGLEWVSAIDSDGDTYYAASVKGRFTISRENAKSSLYLQMNSLRAGDAAVYYCARGPGATGYFLHWGQGTLVTVSS
chain 2: SYVLTQPPSVSVAPGETASITCGGNDLGSKTVHWYQQKPGQAPSLIIYYDSDRPSGIPERFSGSNSGKTATLTISRVEAGDEADYYCQVWENSRDPSWVFGGGTKLTVL
B3: BD56-1781 (protein)
chain 1: EVHLVESGGGLVQPGRSLRLSCAASGFPFDDYAMHWVRQAPGKGLEWVSGISWNGGVIGYADSVQGRCVISRDNAKSSLYLHMNSLRTEDTAFYYCVKDMSGGDYQHYFDHWGQGTLVTVSS
chain 2: SYVLTQAPSVSVAPGKTARITCGGNYIGSKSVHWYQQRPGQAPVLVVYDDSDRPSGIPERFSGSNSDNTATLTISRVEAGDEADYYCLVWDSSSDLYVFGTGTKVTVL
B4: BD56-1752 (protein)
chain 1: QVQLHESGPGLVTPSKTLSLTCTVSGGSISRDYWSWIRQPPGKGLEWIGYFFHTGSNKSSSSLESRVTISIDTSKNHLSLRLTSVTAADTAVYYCARQSTGWNSWYFDLWGRGTLVSVSS
chain 2: SYVLTQSPSVSVAPGQTARITCGGNNIGRNTVHWYQKKPGQAPVVVVYDESDRPSGIPERFSGSNSGNTATLSISRVEVGDEADYYCQVWDTSRDHAVFGGGTKLTVL
B5: BD56-1773 (protein)
chain 1: EVQLVESGGGLVQPGGSLRLSCAASGFIFSSFDMHWVRQGTGRGLEWVSAMGTSGDTYYEDSVKGRFTISRDNGNNSLYLQMNSLRAGDTAVYYCTRGVGHYHYYMDVWGKGTTVTVSS
chain 2: DIQLTQSPSSLSASVGDRVTMTCRASQSIRNYLNWYQQKPGKAPKLLIYAASSLQGGVPSRFSGSGSGTDFTLTISSLQPEDFATYYCQQSYSSPPWTFGQGTKVEFK
B6: COV2-2828 (protein)
chain 1: EVQLVESGGGLVKPGGSLRLSCAASGFTFRDYSMNWVRQAPGKGLEWVSSISSGGSYIYYADSVKGRFTISRDNAKNSLYLQMNSLRAEDTAVYYCARGGSILWWLIDYWGQGTLVTVSS
chain 2: NFMLTQPHSVSESPGKTVTISCTGSSGSIASNYVQWYQQRPGSAPTTVIYEDNQRPSGVPDRFSGSIDSSSNSASLTISGLKTEDEADYYCQSYDSTSRVVFGGGTKLTVL
B7: BD56-1794 (protein)
chain 1: QVQLVQSGPEVKKPGSSVKVSCKASGGTFRSNSISWVRQVPGQGLEWMGRIIPTLGIGNYAQKFQGRVTIIADRSTSIAHMELSSLRSEDTAVYFCARDQGYSSSGSVYYMDVWGQGTTVSVSS
chain 2: QSVLTQPPSVSGAPGQRVTISCTGSNSNIGAGYDVHWYQHLPGTAPKLLMFVNNNRPSGVPDRFSGSKSDTSASLAISGLQAEDEADYYCQSYDSSLSDVIFGGGTKVTVL
B8: BD56-1758 (protein)
chain 1: EVQLVESGGGLVQPGGSLRLSCAASGFTFSVYDMHWVRQATGKGLEWVSGTGTSGDTYYADSVKGRFTVSRDNAKNSLYLQMNSLRAGDTAVYYCARVEYSRGYYWYFDLWGRGTLVTVSS
chain 2: DIQVTQSPSSLSASVGDRVTITCRASHTISSYLNWYQQKPGKAPKLLIYAASSLQSGVPSRFSGSGSGTDFSLTISSLQPEDFATYYCQQSYSAPPWTFGPGTKVEVK
B9: BD56-1784 (protein)
chain 1: EVQLVESGGGLVQPGGSLRLSCAASAFTVNSAYMTWVRQPPGKGLEWVSLIFGASRTYYADSVKGRFTVGRDKNTLFLQMNNLRVEDSAVYYCARWPLSSGLGMGDYWGQGTLVTVSS
chain 2: QSVLTQPPSASGTPGQRVTISCSGSNSNIGTNTVNWYHQVPGTAPKLIIYDNNQRPSGVPDRFSGSKSGTSASLAISGLQSEDEADYYCATWDDSLDGWVFGGGTKLTVL
B10: BD56-1790 (protein)
chain 1: EVQLLESGGGLVQPGRSLRLSCAASGFTFDDYAMHWVRQAPGKGLEWVSGITWNSGTIGYADSVMGRFIISRDNAKSSLYLQVNSLRGEDTALYYCAKDRNSGYRDYYYMDVWGKGTTVTVSS
chain 2: SYVLTQPPSVSVAPGQTARITCGGNNIGSKSVHWYQQKPGQAPVLVVYDDADRPSGIPERFSGSNSGNTATLTISRVEAGDEADYYCQVWDSNSDHVVFGGGTKLTVL
B11: BD56-1771 (protein)
chain 1: EVQLVESGGGLVPPGGSLRLSCAASGFTFSNYDMHWVRQGTGKGLEWVSTIGTAGDTYYPGSVKGRFTISRENAKNSLYLQMNSLTDGDTAVYYCARAQYSSNLYPRLDAWGQGTLVTVSS
chain 2: DIQMTQSPYSLSASVGDRVTITCRASQSIRNYLNWYQQKPGKAPKLLIYAASSLQSGVPSRFSGSGSGTDFTLTISSLQPEDFATYSCQQIYSSEWTFGQGTKVEVK
B12: BD56-1769 (protein)
chain 1: QVQLVQSGAEVKKPGSSVKVSCKASGGTFNSYAISWLRQAPGQGLEWMGRIIPILGRPHYAQNFQGRVTILADKSTSTASVEVSSLKSEDTAVYYCATSGFYGDLGISKDAFDIWGRGTMVTVSS
chain 2: DIQMTQSPSTLSASVGDRVTITCRASQSINSWLAWYQQKPGKAPKLLIYDASNLESGVPSRFSGSGSGTEFTLTISSLQPDDFATYYCQQYQSYSPLTFGGGTKVEIK

Human monoclonal antibodies against the spike receptor-binding domain (heavy:light variable regions). IC50 against pseudoviruses bearing the spike of naturally observed variants; lower = stronger; >10 µg/ml means not reached at the top dose. No active / inactive call. The stated detection limit is 0.0005 µg/ml; values near or below 0.001 µg/ml lie at the floor of the assay. Where only a bound is given, the exact number is not on record here.

The first assay addresses SARS-CoV-2 Omicron BA.1 spike pseudovirus. Put plainly: pseudovirus neutralization IC50; higher = weaker neutralization. On the procedure:
(§1)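 Single-round VSV luciferase pseudovirus mixed with antibody dilutions for 1 h and put on Huh-7 cells for about a day; IC50 from the dose curve.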
Take B1: the “pseudovirus neutralization IC50” value was 0.181 µg/mL.

For the molecule B2, the “pseudovirus neutralization IC50” value was 0.937 µg/mL.

Regarding B3, the “pseudovirus neutralization IC50” value came to 0.0123 µg/mL.

As to B4, the “pseudovirus neutralization IC50” value stood at 1.53 µg/mL.

Take B5: the “pseudovirus neutralization IC50” value was greater than 10 µg/mL.

Turning to B6, the “pseudovirus neutralization IC50” value is greater than 10 µg/mL.

Turning to B7, the “pseudovirus neutralization IC50” value was 0.656 µg/mL.

As for B8, the “pseudovirus neutralization IC50” value is greater than 10 µg/mL.

Turning to B9, the “pseudovirus neutralization IC50” value was greater than 10 µg/mL.

On to B10, for which the “pseudovirus neutralization IC50” value is 0.167 µg/mL.

With B11, the “pseudovirus neutralization IC50” value is greater than 10 µg/mL.

For B12, the “pseudovirus neutralization IC50” value was 3.17 µg/mL.

The next assay concerns the target SARS-CoV-2 Omicron BA.2 spike pseudovirus. The description is as above. The procedure:
as §1
As to B1, the “pseudovirus neutralization IC50” value amounted to 6.2 µg/mL.

As to B2, the “pseudovirus neutralization IC50” value was found to be 0.059 µg/mL.

As for B3, the “pseudovirus neutralization IC50” value is 0.0121 µg/mL.

With B4, the “pseudovirus neutralization IC50” value worked out at 2.08 µg/mL.

Turning to B5, the “pseudovirus neutralization IC50” value was greater than 10 µg/mL.

As to B6, the “pseudovirus neutralization IC50” value was greater than 10 µg/mL.

Turning to B7, the “pseudovirus neutralization IC50” value came out at 1.04 µg/mL.

Consider B8, for which the “pseudovirus neutralization IC50” value is greater than 10 µg/mL.

For B9, the “pseudovirus neutralization IC50” value is greater than 10 µg/mL.

As for B10, the “pseudovirus neutralization IC50” value was 0.261 µg/mL.

For B11, the “pseudovirus neutralization IC50” value was greater than 10 µg/mL.

B12: the “pseudovirus neutralization IC50” value worked out at 0.19 µg/mL.

For the next assay, the target named is SARS-CoV-2 Omicron BA.2.75 spike pseudovirus. The description is as above. On the procedure: as §1
For B1, the “pseudovirus neutralization IC50” value is greater than 10 µg/mL.

Consider B2, for which the “pseudovirus neutralization IC50” value is 0.0332 µg/mL.

Take B3: the “pseudovirus neutralization IC50” value worked out at 0.00697 µg/mL.

B4: the “pseudovirus neutralization IC50” value amounted to 0.995 µg/mL.

On to B5, for which the “pseudovirus neutralization IC50” value was greater than 10 µg/mL.

On to B6, for which the “pseudovirus neutralization IC50” value was greater than 10 µg/mL.

On to B7, for which the “pseudovirus neutralization IC50” value is 0.289 µg/mL.

As for B8, the “pseudovirus neutralization IC50” value was greater than 10 µg/mL.

On to B9, for which the “pseudovirus neutralization IC50” value was greater than 10 µg/mL.

B10: the “pseudovirus neutralization IC50” value worked out at 0.081 µg/mL.

Take B11: the “pseudovirus neutralization IC50” value is greater than 10 µg/mL.

As to B12, the “pseudovirus neutralization IC50” value was determined as 0.0902 µg/mL.

Another assay has as its target SARS-CoV-2 Omicron BA.5 spike pseudovirus. Described as above. The procedure: as §1
Regarding B1, the “pseudovirus neutralization IC50” value amounted to 2.57 µg/mL.

Regarding B2, the “pseudovirus neutralization IC50” value was greater than 10 µg/mL.

As for B3, the “pseudovirus neutralization IC50” value turned out to be 0.0908 µg/mL.

With B4, the “pseudovirus neutralization IC50” value is 1.75 µg/mL.

For the molecule B5, the “pseudovirus neutralization IC50” value is greater than 10 µg/mL.

Turning to B6, the “pseudovirus neutralization IC50” value was greater than 10 µg/mL.

For B7, the “pseudovirus neutralization IC50” value was greater than 10 µg/mL.

In the case of B8, the “pseudovirus neutralization IC50” value was greater than 10 µg/mL.

As to B9, the “pseudovirus neutralization IC50” value is greater than 10 µg/mL.

Take B10: the “pseudovirus neutralization IC50” value was greater than 10 µg/mL.

As to B11, the “pseudovirus neutralization IC50” value is greater than 10 µg/mL.

Take B12: the “pseudovirus neutralization IC50” value came to 0.175 µg/mL.

In another assay the target is SARS-CoV-2 Omicron BQ.1.1 spike pseudovirus. The description is as above. The procedure: as §1
As to B1, the “pseudovirus neutralization IC50” value is greater than 10 µg/mL.

On to B2, for which the “pseudovirus neutralization IC50” value was greater than 10 µg/mL.

For the molecule B3, the “pseudovirus neutralization IC50” value was greater than 10 µg/mL.

In the case of B4, the “pseudovirus neutralization IC50” value was greater than 10 µg/mL.

As to B5, the “pseudovirus neutralization IC50” value is greater than 10 µg/mL.

Consider B6, for which the “pseudovirus neutralization IC50” value was greater than 10 µg/mL.

As to B7, the “pseudovirus neutralization IC50” value is greater than 10 µg/mL.

Take B8: the “pseudovirus neutralization IC50” value is greater than 10 µg/mL.

In the case of B9, the “pseudovirus neutralization IC50” value is greater than 10 µg/mL.

Consider B10, for which the “pseudovirus neutralization IC50” value is greater than 10 µg/mL.

As to B11, the “pseudovirus neutralization IC50” value is greater than 10 µg/mL.

For the molecule B12, the “pseudovirus neutralization IC50” value is greater than 10 µg/mL.

In the next assay the target is SARS-CoV-2 Omicron XBB spike pseudovirus. Described as above. The procedure:
as §1
On to B1, for which the “pseudovirus neutralization IC50” value is greater than 10 µg/mL.

Regarding B2, the “pseudovirus neutralization IC50” value amounted to 0.98 µg/mL.

Consider B3, for which the “pseudovirus neutralization IC50” value was greater than 10 µg/mL.

Regarding B4, the “pseudovirus neutralization IC50” value is greater than 10 µg/mL.

On to B5, for which the “pseudovirus neutralization IC50” value was greater than 10 µg/mL.

B6: the “pseudovirus neutralization IC50” value was greater than 10 µg/mL.

As to B7, the “pseudovirus neutralization IC50” value is greater than 10 µg/mL.

Regarding B8, the “pseudovirus neutralization IC50” value was greater than 10 µg/mL.

Turning to B9, the “pseudovirus neutralization IC50” value was greater than 10 µg/mL.

Take B10: the “pseudovirus neutralization IC50” value was greater than 10 µg/mL.

Regarding B11, the “pseudovirus neutralization IC50” value is greater than 10 µg/mL.

On to B12, for which the “pseudovirus neutralization IC50” value is greater than 10 µg/mL.

Another assay deals with SARS-CoV-2 early D614G spike pseudovirus. Described as above. On the procedure:
as §1
As for B1, the “pseudovirus neutralization IC50” value was 0.189 µg/mL.

With B2, the “pseudovirus neutralization IC50” value amounted to 0.711 µg/mL.

B3: the “pseudovirus neutralization IC50” value was determined as 0.0348 µg/mL.

Take B4: the “pseudovirus neutralization IC50” value worked out at 1.96 µg/mL.

Turning to B5, the “pseudovirus neutralization IC50” value was greater than 10 µg/mL.

Turning to B6, the “pseudovirus neutralization IC50” value is 1.52 µg/mL.

B7: the “pseudovirus neutralization IC50” value came out at 0.373 µg/mL.

For the molecule B8, the “pseudovirus neutralization IC50” value amounted to 7.94 µg/mL.

Regarding B9, the “pseudovirus neutralization IC50” value is 0.702 µg/mL.

Consider B10, for which the “pseudovirus neutralization IC50” value amounted to 0.144 µg/mL.

On to B11, for which the “pseudovirus neutralization IC50” value is greater than 10 µg/mL.

Turning to B12, the “pseudovirus neutralization IC50” value worked out at 0.00103 µg/mL.
